Results on 93 compounds are retold here after PubChem BioAssay AID720706 (Broad Institute, 2013).

SMILES strings stand for the structures. The list shows a part of the results, in another mix than the full data. Activity calls are given as the source filed them.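 Rule for the calls: active = significant combined selectivity score with lowered wild-type GFP, culture density cut under 30%, mutant RFP and density less affected; inactive = any of these conditions unmet.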

The nature of the assay: reduced GFP signal of wild-type E. coli, primary screen, bacterial rRNA inhibitor project, GFP/RFP fluorescence, OD600, single point (AID 720706). Particulars: E. coli WT GFP vs humanized-ribosome RFP mutants, 24 h, stronger effect = lower value, DMSO median 0, no signal -100.
On to `CCOC(=O)N1CCC(Nc2ccc(F)cc2)CC1`, for which the GFP signal change (wild-type ribosome) was inactive: 13.1%.
Then `O=C(NCC1(N2CCCCC2)CCCCC1)c1ccc(F)cc1`, with inactive: 2.59%.
To `CCCCn1nnnc1C(c1cc2ccccc2o1)N1CCC(n2c(=O)[nH]c3ccccc32)CC1` (stereo not drawn) belongs inactive: 3.3%.
For `O=P1(N(CCCl)CCCl)SCCCS1`, the GFP signal change (wild-type ribosome) was inactive: 14.6%.
As for `CCCCOc1ccc(C(=O)NCC2(N3CCOCC3)CCCCC2)cc1`, the GFP signal change (wild-type ribosome) was inactive: 0.635%.
`CC(C)(C)n1nnnc1C(c1ccccc1)N1CCC(n2c(=O)[nH]c3ccccc32)CC1` (stereo not drawn): the GFP signal change (wild-type ribosome) is inactive: 1.96%.
Then `COc1cc(C(=O)NCC2(N(C)C)CCCCC2)ccc1OC(F)F`, with inactive: 6.78%; and `CCOC(=O)N1CCC(Nc2cccc(C)c2)CC1`, with inactive: 5.58%; and `O=c1[nH]c2ccccc2n1C1CCN(C(c2cccc3ccccc23)c2nnnn2C2CCCC2)CC1` (stereo not drawn), with inactive: 7.97%.
Regarding `O=c1[nH]c2ccccc2n1C1CCN(C(c2ccccc2)c2nnnn2C2CCCCC2)CC1` (stereo not drawn), the GFP signal change (wild-type ribosome) was inactive: 16.8%.
Turning to `Cc1cccc(NC2(C#N)CCN(Cc3ccccc3)CC2)c1`, the GFP signal change (wild-type ribosome) was inactive: 12.1%.
Then `CCC(c1nnnn1C1CCCC1)N1CCC(n2c(=O)[nH]c3ccccc32)CC1` (stereo not drawn), with inactive: 1.09%; and `COc1ccc(C(=O)NCC2(N3CCCCC3)CCCCC2)c(OC)c1OC`, with inactive: 10%.
To `CC(C)(C)OC(=O)N1CCC(N(C(=O)c2ccccc2)c2ccc(F)cc2)CC1` belongs inactive: 3.61%; to `COc1ccc(C(=O)NCC2(N3CCCCC3)CCCCC2)cc1`, inactive: 9.14%; to `CCCCn1nnnc1C(c1cccs1)N1CCC(n2c(=O)[nH]c3ccccc32)CC1` (stereo not drawn), inactive: -24.4%.
Then `CCCCn1nnnc1C(CC)N1CCC(n2c(=O)[nH]c3ccccc32)CC1` (stereo not drawn), with inactive: -12%; and `O=C(NCC1(N2CCCCC2)CCCCC1)c1cccs1`, with inactive: 14.1%; and `O=C(NCC1(N2CCCCC2)CCCCC1)c1ccc(=O)[nH]c1`, with inactive: 5.68%.
In the case of `COc1ccc(Cl)cc1C(=O)NCC1(N2CCOCC2)CCCCC1`, the GFP signal change (wild-type ribosome) is inactive: -5.21%.
To `O=C(OC1CN2CCC1CC2)C1c2ccccc2Oc2ccccc21` (stereo not drawn) belongs inactive: -8.68%.
Then `O=c1[nH]c2ccccc2n1C1CCN(C(c2cc3ccccc3o2)c2nnnn2C2CCCCC2)CC1` (stereo not drawn), with inactive: 10.9%; and `O=C(NCC1(N2CCCCC2)CCCCC1)c1ccc(Cl)s1`, with inactive: 17.9%; and `N#CC1(Nc2ccccc2)CCN(Cc2ccccc2)CC1`, with inactive: 22.5%.
Then `CCCCn1nnnc1C(c1ccc(OC)cc1)N1CCC(n2c(=O)[nH]c3ccccc32)CC1` (stereo not drawn), with inactive: -5.68%.
For `CCOC(=O)N1CCC(Nc2ccc(OC)cc2)CC1`, the GFP signal change (wild-type ribosome) is inactive: 8.55%.
To `Cc1cc(C)cc(N(C(=O)c2ccccc2)C2CCN(C(=O)OC(C)(C)C)CC2)c1` belongs inactive: -1.56%; to `O=c1[nH]c2ccccc2n1C1CCN(C(c2ccccc2OC(F)(F)F)c2nnnn2C2CCCCC2)CC1` (stereo not drawn), inactive: 14.6%.
`O=C(NCC1(N2CCCCC2)CCCCC1)c1ccc(Cl)nc1`: the GFP signal change (wild-type ribosome) was inactive: 5.86%.
Take `CCC(c1nnnn1C(C)(C)C)N1CCC(n2c(=O)[nH]c3ccccc32)CC1` (stereo not drawn): the GFP signal change (wild-type ribosome) was inactive: 15.9%.
To `O=C(NCC1(N2CCOCC2)CCCCC1)c1cc(F)c(F)cc1Cl` belongs inactive: 6.1%; to `COc1cc(OC)c(C(=O)NCC2(N(C)C)CCCCC2)cc1OC`, inactive: 5.81%.
Then `CCCCn1nnnc1C(c1ccnc2ccccc12)N1CCC(n2c(=O)[nH]c3ccccc32)CC1` (stereo not drawn), with inactive: -7.97%.
To `CC(C)c1ccc(NC2CCN(C(=O)OC(C)(C)C)CC2)cc1` belongs inactive: -2.83%.
As for `CN(C)c1cccc(C(=O)NCC2(N3CCCCC3)CCCCC2)c1`, the GFP signal change (wild-type ribosome) was inactive: 12.3%.
Then `COc1ccc(CN(CCCl)CCCl)cc1Cl`, with inactive: 6.28%.
With `COc1ccc(C(c2nnnn2C2CCCC2)N2CCC(n3c(=O)[nH]c4ccccc43)CC2)cc1` (stereo not drawn), the GFP signal change (wild-type ribosome) is inactive: 1.8%.
Then `CCCOc1ccc(C(=O)NCC2(N(C)C)CCCCC2)cc1OC`, with inactive: 10.8%; and `Cc1ccc(C(=O)NCC2(N(C)C)CCCCC2)o1`, with inactive: 6.15%.
To `O=C(NCC1(N2CCCCC2)CCCCC1)c1cncc(Br)c1` belongs inactive: 2.91%; to `CN1CCC(Nc2cccc(F)c2)CC1`, inactive: 21.3%; to `O=c1[nH]c2ccccc2n1C1CCN(C(c2ccccc2OC(F)(F)F)c2nnnn2C2CCCC2)CC1` (stereo not drawn), inactive: 24.2%.
Then `CCN1CCC(Nc2ccc(Cl)cc2)CC1`, with inactive: 9.09%.
For the compound `O=C(NCC1(N2CCCCC2)CCCCC1)c1cccc([N+](=O)[O-])c1`, the GFP signal change (wild-type ribosome) was inactive: 18.7%.
Then `CSc1ccc(C(=O)NCC2(N3CCOCC3)CCCCC2)cc1`, with inactive: -0.625%; and `CC(C)(C)n1nnnc1C(c1ccccc1OC(F)(F)F)N1CCC(n2c(=O)[nH]c3ccccc32)CC1` (stereo not drawn), with inactive: 20.8%; and `COc1cc(C(=O)NCC2(N3CCCCC3)CCCCC2)ccc1OC(F)F`, with inactive: 12.2%.
To `CCCCn1nnnc1C(c1cccc2ccccc12)N1CCC(n2c(=O)[nH]c3ccccc32)CC1` (stereo not drawn) belongs inactive: 5.02%; to `CN1CCN(CCOC(=O)C(O)(c2ccccc2)c2ccccc2)CC1`, inactive: 5.19%.
To `COc1ccc(NC2CCN(C(=O)OC(C)(C)C)CC2)cc1` belongs inactive: 7.86%; to `CC(C)c1ccc(C(=O)NCC2(N3CCOCC3)CCCCC2)cc1`, inactive: -0.496%; to `O=C(NCC1(N2CCCCC2)CCCCC1)c1cccc(C(F)(F)F)c1`, inactive: -0.07%.
For `N#Cc1ccc(C(=O)NCC2(N3CCCCC3)CCCCC2)cc1`, the GFP signal change (wild-type ribosome) was inactive: 6.96%.
`CC(C)(C)OC(=O)N1CCC(N(C(=O)c2ccccc2)c2ccc(Cl)cc2)CC1`: the GFP signal change (wild-type ribosome) is inactive: 0.57%.
To `CC(C)(C)n1nnnc1C(c1cccc2ccccc12)N1CCC(n2c(=O)[nH]c3ccccc32)CC1` (stereo not drawn) belongs inactive: 20.5%; to `CN(C)C1(CNC(=O)c2cccc(C#N)c2)CCCCC1`, inactive: 9.43%; to `O=c1[nH]c2ccccc2n1C1CCN(C(c2ccccc2)c2nnnn2C2CCCC2)CC1` (stereo not drawn), inactive: -5.77%.
To `CCCN1CCC(Nc2cc(OC)cc(OC)c2)CC1` belongs inactive: 80.3%; to `Cc1cc(N(CCCl)CCCl)ccc1C=O`, inactive: -9.17%.
To `C/C(N)=N\P(=O)(Oc1ccccc1)Oc1ccccc1` belongs inactive: 1.68%.
As to `O=c1[nH]c2ccccc2n1C1CCN(C(c2cccs2)c2nnnn2C2CCCCC2)CC1` (stereo not drawn), the GFP signal change (wild-type ribosome) was inactive: -16.9%.
Then `O=c1[nH]c2ccccc2n1C1CCN(C(c2ccnc3ccccc23)c2nnnn2C2CCCC2)CC1` (stereo not drawn), with inactive: -7.98%; and `COc1ccc(C(=O)NCC2(N3CCOCC3)CCCCC2)cc1OC`, with inactive: 14.7%; and `COc1cc(C(=O)NCC2(N3CCOCC3)CCCCC2)cc(OC)c1C`, with inactive: 3.81%.
Then `CCCCn1nnnc1C(c1ccccc1)N1CCC(n2c(=O)[nH]c3ccccc32)CC1` (stereo not drawn), with inactive: -6.62%; and `O=C(NCC1(N2CCOCC2)CCCCC1)c1cc(Br)ccc1Cl`, with inactive: -0.645%; and `O=c1[nH]c2ccccc2n1C1CCN(C(c2cccs2)c2nnnn2C2CCCC2)CC1` (stereo not drawn), with active: -19.1%.
To `CCCCn1nnnc1C(c1cccc(OC)c1OC)N1CCC(n2c(=O)[nH]c3ccccc32)CC1` (stereo not drawn) belongs inactive: -8.14%; to `COc1cccc(C(c2nnnn2C(C)(C)C)N2CCC(n3c(=O)[nH]c4ccccc43)CC2)c1OC` (stereo not drawn), inactive: -25.1%.
Consider `CCOC(=O)N1CCC(Nc2ccc(C)cc2)CC1`, for which the GFP signal change (wild-type ribosome) was inactive: 3.6%.
To `O=C(O)C1(Nc2ccccc2)CCN(Cc2ccccc2)CC1` belongs inactive: 6.87%; to `NN(c1ccccc1)C1CCN(CCc2ccccc2)CC1`, inactive: -4.59%.
Then `CC(C)(C)OC(=O)N1CCC(Nc2ccccc2)CC1`, with inactive: 5.56%.
To `CCCOc1ccc(C(=O)NCC2(N(C)C)CCCCC2)cc1` belongs inactive: 13.4%; to `O=c1[nH]c2ccccc2n1C1CCN(C(c2cc3ccccc3o2)c2nnnn2C2CCCC2)CC1` (stereo not drawn), inactive: 4.42%.
As to `CN1CCC(Nc2ccc(F)c(Cl)c2)CC1`, the GFP signal change (wild-type ribosome) is inactive: 7.42%.
Then `CN1CCC(Nc2ccc(Cl)cc2)CC1`, with inactive: 13.7%.
On to `COc1cc(OC)cc(C(=O)NCC2(N3CCOCC3)CCCCC2)c1`, for which the GFP signal change (wild-type ribosome) is inactive: 9.05%.
To `COc1cccc(C(c2nnnn2C2CCCC2)N2CCC(n3c(=O)[nH]c4ccccc43)CC2)c1OC` (stereo not drawn) belongs inactive: -13.5%.
To `COc1cccc(C(=O)N(c2cc(C)cc(C)c2)C2CCN(C(=O)OC(C)(C)C)CC2)c1` belongs inactive: -1.56%; to `Fc1ccccc1NC1CCN(Cc2ccccc2)CC1`, inactive: 19.9%.
Then `Cc1ccc(C(=O)NCC2(N3CCCCC3)CCCCC2)o1`, with inactive: 4.46%; and `CCC(c1nnnn1C1CCCCC1)N1CCC(n2c(=O)[nH]c3ccccc32)CC1` (stereo not drawn), with inactive: -28.3%.
With `CC(=O)N(c1ccccc1)C1CCNCC1`, the GFP signal change (wild-type ribosome) was inactive: 10.7%.
To `COc1cccc(C(c2nnnn2C2CCCCC2)N2CCC(n3c(=O)[nH]c4ccccc43)CC2)c1OC` (stereo not drawn) belongs inactive: 12.7%; to `O=c1[nH]c2ccccc2n1C1CCN(C(c2ccnc3ccccc23)c2nnnn2C2CCCCC2)CC1` (stereo not drawn), inactive: 8.69%.
For the compound `COc1cc(OC)cc(C(=O)NCC2(N3CCCCC3)CCCCC2)c1`, the GFP signal change (wild-type ribosome) was inactive: 4.08%.
As to `Cn1c(=O)[nH]cc(N(CCCl)CCCl)c1=O`, the GFP signal change (wild-type ribosome) was inactive: 28.6%.
To `CN(C)c1ccc(C(=O)NCC2(N3CCCCC3)CCCCC2)cc1` belongs inactive: 6.28%; to `O=C(NCC1(N2CCCCC2)CCCCC1)c1ccco1`, inactive: 3.85%; to `CC(C)(C)n1nnnc1C(c1ccnc2ccccc12)N1CCC(n2c(=O)[nH]c3ccccc32)CC1` (stereo not drawn), inactive: -25.4%.
Then `COc1ccc(C(c2nnnn2C2CCCCC2)N2CCC(n3c(=O)[nH]c4ccccc43)CC2)cc1` (stereo not drawn), with inactive: 2.08%; and `Cc1ccccc1NC1(C#N)CCN(Cc2ccccc2)CC1`, with inactive: 14.6%.
